# Measured data: PubChem BioAssay AID1259414 (Drosophila RNAi Screening Center, 2018)
# Purpose: 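Fly genes that alter Wolbachia amount inside host cells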 (primary screen)
# Cells: Drosophila JW18 cells infected with Wolbachia
# Reagent: long dsRNA against Drosophila genes, 0.25 µg dsRNA per well of a 384-well plate
# Timing: 5 days
# Conditions: cells persistently infected with Wolbachia before knock-down; no added drug
# Detection: 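Automated imaging of bacterial rRNA staining divided by host cell count, reported as plate-normalised robust z-score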
# Direction: Wolbachia per cell robust z: higher = more Wolbachia per host cell than the plate typical
# Rule for the call: 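Hit when robust z is 1.5 or more, or -1.5 or less, in at least two of three replicates; excludes dsRNAs with several or no targets, genes not expressed in JW18 and well A1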
# The screen tested about 24,000 reagents; this is an unselected part of those with a known target gene and a result. Over the whole deposit, about 1,210 (5%) got an active call. 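Inactive calls also include excluded dsRNAs with several or no targets, genes unexpressed in JW18, and well A1, regardless of score.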 A number with no mark means an inactive call. A plus sign joins genes that one reagent is predicted to hit.
gene knocked down,dsRNA,"Wolbachia per cell robust z, rep 1","Wolbachia per cell robust z, rep 2","Wolbachia per cell robust z, rep 3"
SIDL,DRSC16077,1.25,-0.349,1.76
sut2,DRSC07701,-0.311,0.784,0.604
CG6685,DRSC10695,0.624,-0.376,-0.0136
CG8818,DRSC07275,-0.758,-0.528,0
CG8818,DRSC28138,0.061,-0.685,-0.106
Ance-4,DRSC07104,2.46,1.21,0.591
Sf3b1,DRSC00535,5.26 (active),0.87,6.51
Sf3b1,DRSC39103,2.69 (active),1.44,5.43
Rint1,DRSC11010,0.499,0.954,0.0983
Rint1,DRSC27960,-0.999,-0.00216,0.388
Srx,DRSC20005,-1.37,-1.22,-0.859
rhi,DRSC05996,-0.0515,-0.0932,0.0468
rhi,DRSC40821,0.453,0.59,-0.0473
Psa,DRSC08152,0.68,-0.986,-1.94
CG14883,DRSC15007,0.173,-0.202,0.879
eIF3h,DRSC01995,1.25,-0.146,-1.97
eIF3h,DRSC27567,0.593,-1.19,1.97
CCHa2-R,DRSC04870,0.593,-0.205,-7.85
CCHa2-R,DRSC04871,-3.11,0.0513,0.766
CG33927,DRSC37831,-0.162,-1.89,-1.18
fz3,DRSC18779,-1.62,0.0249,0.123
fz3,DRSC29682,-0.565,0.45,0.406
CG17059,DRSC06654,0.409,-3.29,-1.1
Alh,DRSC12447,-1.38,-4.54,-0.167
Alh,DRSC12487,-2.78 (active),-0.283,-1.6
Alh,DRSC12488,-6.92,-0.594,-1.28
Alh,DRSC28926,0.688,0.581,0.82
Alh,DRSC40765,0.439,0.346,-0.135
CG13168,DRSC06295,-0.177,-0.0502,-1.18
CR40282,DRSC07814,0.855,0.337,0.398
ETH + asRNA:CR43257,DRSC04612,0.24,0.0036,-0.407
ana,DRSC07579,1.08,0.694,-0.0135
ana,DRSC24236,0.983,-0.547,1.49
ana,DRSC38967,-0.377,0.481,-0.431
nyo,DRSC15029,0.84,-0.0952,-4.18
nyo,DRSC15030,-2.38,0.783,2.02
dpr7,DRSC17109,-8,0.889,0.6
dpr7,DRSC26544,-2.41,0.315,-0.725
a6,DRSC18733,-0.133 (active),-5.6,-7.36
RpS24,DRSC04414,0.678,0.401,1.07
RpS24,DRSC28412,2.38 (active),4.56,4.84
CG7715,DRSC16301,-0.582,-1.74,0.453
CG5377,DRSC15783,0.0326,0.932,1.02
CG5377,DRSC28892,0.53,0.385,0.242
CG6296,DRSC16013,-1.72,-0.896,-0.73
Cbl,DRSC10764,0.916,0.322,-0.958
Cbl,DRSC11111,-2.19,1.12,0.643
Cbl,DRSC28169,0.903,0.665,0.288
Jon65Ai,DRSC09731,-6.09,-0.0819,0.953
Jon65Ai,DRSC24837,0.222,-1.13,-0.264
Or47b,DRSC07492,-0.438,-1.5,-0.0448
rib,DRSC07021,-0.192,-0.178,-1.15
AlaRS-m,DRSC09660,0.996,0.0556,-0.226
AlaRS-m,DRSC28250,-0.0937,0.231,0.666
lncRNA:CR32582,DRSC19114,-0.416,-0.674,-0.836
y,DRSC18853,-0.17,0.67,-0.136
y,DRSC39116,-1.5,-0.602,-0.311
CG32053,DRSC10683,0.722,-0.781,0.261
bdg,DRSC07136,-2.57,-3.28,-5.6
Arfrp1,DRSC18417,0.774,-0.421,0.562
CG31788,DRSC01630,1.16,-0.107,-0.0727
CG9467,DRSC16498,-1.33,1.62,0.664
CG4928,DRSC19342,-2.28,0.213,-1.33
CG4928,DRSC29007,1.06,-0.618,0.00847
fand,DRSC06967,2.47 (active),2.96,4.48
fand,DRSC27505,0.0122,-1.8,-0.474
fand,DRSC39027,1.12,0.902,1.46
trc,DRSC11406,-0.105,-0.00744,0.218
trc,DRSC29426,-1.33,0.152,-8.11
